Molecules are shown by their SMILES. This is one part of the list. Only a part of the results of these assays is listed, not drawn at random. The source made the active and inactive calls. The calls are words filed in the database; no cut-off is given here.

The subject of the assay is Plasmodium falciparum. In words: Primary qHTS for delayed death inhibitors of the malarial parasite plastid, 48 hour incubation. [Related pubchem assays (depositor defined):AID488752, AID488774, AID504848, AID504850]. Format: functional. For orientation: In qHTS, concentration-response curves come from the screen itself.
Turning to `CCOC(=O)C(CC)C1=NC(C)(C)Cc2ccccc21` (stereo not drawn), the Potency result was “inactive”. On to `Cc1nc2ccc3ccccc3c2s1`, for which the Potency result was “inactive”.

In the case of `O=[N+]([O-])c1cc([N+](=O)[O-])c(NCC2CCS(=O)(=O)C2)c([N+](=O)[O-])c1` (stereo not drawn), the Potency result was “inactive”.

The values are drawn from ChEMBL document CHEMBL1201862, “PubChem BioAssay data set” (2004).
